Laboratory results published in article PMC9982069 (PNAS Nexus, 2023).

B1: batCOV5-N3, N3 fragment (residues 391-427) of batCOV5 N protein, His-tagged (pull-down) (domain or fragment)
chain: PKQQRKKRVVQGSIPQRSAGVPSFEDVVDAIFPDSEA
B2: batCOV5-M, M protein of Pipistrellus bat coronavirus HKU5, tag-free (pull-down) (natural protein)
chain: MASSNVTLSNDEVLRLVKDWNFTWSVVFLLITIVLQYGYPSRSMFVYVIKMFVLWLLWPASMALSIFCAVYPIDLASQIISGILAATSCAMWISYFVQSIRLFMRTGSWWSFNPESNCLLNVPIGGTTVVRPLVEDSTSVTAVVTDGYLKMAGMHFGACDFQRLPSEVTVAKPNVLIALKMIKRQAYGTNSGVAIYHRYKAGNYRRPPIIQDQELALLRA
B3:  (domain or fragment)
chain: VPSFEDVVDAIFPDSEA

Experiments:
Experiment in all cases: pull-down
[1] = biological target: batCOV5-M K172A, tag-free (pull-down) (Pipistrellus bat coronavirus HKU5, UniProt A3EXD6 1-220, K172A)
[2] = biological target: batCOV5-M K150A, tag-free (pull-down) (Pipistrellus bat coronavirus HKU5, UniProt A3EXD6 1-220, K150A)
[3] = biological target: batCOV5-NFL, full-length N protein of Pipistrellus bat coronavirus HKU5, His-tagged (Pipistrellus bat coronavirus HKU5, UniProt A3EXD7 1-427)
[4] = biological target: B2

B1: binds [1]; binds [2].

B2: binds [3].

B3: binds [4].
